The target of series [1] is HIV-1 IN (full-length, His-tagged and FLAG-tagged) (Human immunodeficiency virus type 1 group M subtype B, UniProt P12497). In words: HTRF-based IN multimerization assay. The following applies: read-out: In vitro IN multimerization EC50, average with SD of three independent experiments. On the procedure:
For biochemical studies, recombinant proteins 6xHis-tagged and FLAG-tagged full-length INs were expressed in E. coli and purified by column chromatography as previously described ([39]). The HTRF-based assay used to monitor inhibitor-induced aberrant multimerization of IN was performed as previously reported ([15], [19]). Briefly, two separate preparations of His-tagged and FLAG-tagged IN proteins were mixed in presence of increasing concentration of the test compounds and incubated for 2.5 h at room temperature. Anti-His6-XL665 and anti-FLAG-EuCryptate antibodies (Cisbio, Inc) were then added to the reaction and incubated at room temperature for 3 h. The IN multimerization HTRF signal was recorded using a PerkinElmer EnSpire multimode plate reader, and dose–response curves were fitted with a sigmoidal dose–response equation with Hill slope to determine the compound EC50 using Origin software (v9.7).
(Time-resolved FRET reads energy transfer from a long-lived donor to a nearby acceptor.)

The next series concerns noninfected cells. Description: CyQUANT XTT Cell Viability cytotoxicity assay. On the procedure:
The EC50 values were determined in single replication cycle as described previously ([17]). Briefly, HEK293T cells were transfected with pNL4-3.Luc.Env- and pHEF-VSV-G plasmids to produce respective viruses in the absence or presence of indicated concentrations of ALLINIs. The virus supernatants were collected 24 h after drug treatment, and p24 concentrations were determined by HIV-1 Gag p24 ELISA (ZeptoMetrix) following manufacturer’s protocol. The target cells were then infected with HIV-1 virions equivalent to 4 ng of HIV-1 p24, in the absence or presence of indicated concentrations of drugs. To measure EC50 values during the early replication stage, DMSO or the inhibitor was added to the target cells 60 min before infection. The cells were cultured for 48 h, and the cell extracts were prepared using reporter lysis buffer (Promega). Luciferase activity was determined using a commercially available kit (Promega). The cytotoxicity assays were performed on noninfected cells using the commercially available CyQUANT XTT Cell Viability Assay (Invitrogen, Inc) by following the manufacturer protocol. The dose–response curves were fitted with a sigmoidal dose–response equation with Hill slope to determine the compound IC50 and CC50 using Origin software (v9.7).
For orientation: Formazan colour is commonly taken as a measure of viable cells.

Molecules are shown by their SMILES. Where only a bound is given, the exact number is not on record here.

What is called EC50 is the concentration that produces a half-maximal response. On to `Cc1nc2cc(-c3ccccc3Cl)ccc2c(-c2ccc3c(c2)OCCO3)c1C(OC(C)(C)C)C(=O)O` (racemic), for which, in series [1], the EC50 is 110 nM.
Still for that read-out and setting: in the case of `Cc1nc2cc(-c3ccccc3C(F)(F)F)ccc2c(-c2ccc3c(c2)OCCO3)c1C(OC(C)(C)C)C(=O)O` (racemic) it was 140 nM.
Still for that read-out and setting: in the case of `CCOc1ccccc1-c1ccc2c(-c3ccc4c(c3)OCCO4)c(C(OC(C)(C)C)C(=O)O)c(C)nc2c1` (racemic) it was 60 nM; in that of `Cc1nc2cc(-c3ccccc3OC(F)(F)F)ccc2c(-c2ccc3c(c2)OCCO3)c1C(OC(C)(C)C)C(=O)O` (racemic), 120 nM.
On the same count and under the same terms, in the case of `COc1ccc(-c2ccc3c(-c4ccc5c(c4)OCCO5)c(C(OC(C)(C)C)C(=O)O)c(C)nc3c2)cc1` (racemic) it was 40 nM.
For the molecule `Cc1ccccc1-c1ccc2c(-c3ccc4c(c3)OCCO4)c(C(OC(C)(C)C)C(=O)O)c(C)nc2c1` (racemic), the concentration for a half-maximal effect (EC50) in series [1] stood at 60 nM.
The same measure, in the same setting: in the case of `COc1cccc(-c2ccc3c(-c4ccc5c(c4)OCCO5)c(C(OC(C)(C)C)C(=O)O)c(C)nc3c2)c1` (racemic) it was 520 nM.
In general, CC50 refers to the concentration that lowers cell viability or growth by half. A lower CC50 goes with harm at low concentration. `Cc1nc2cc(-c3ccccc3)ccc2c(-c2ccc3c(c2)OCCO3)c1C(OC(C)(C)C)C(=O)O` (racemic): in series [1], the EC50 is 70 nM. Also, the CC50 in the series with noninfected cells was over 100000 nM.

Source of the values: publication PMC7949159, “Optimized binding of substituted quinoline ALLINIs within the HIV-1 integrase oligomer” (The Journal of Biological Chemistry, 2021).
